Pooled drug test results. Numbers come from NIAID ChemDB, via PubChem.

Shared fields: whole-cell or culture tests; organism: Candida albicans; read-out: MIC

Neighbouring rows are from separate reports.

structure | strain | method | result
CCCCCOc1ccc(-c2cc(-c3ccc(C(=O)N[C@H]4C[C@@H](O)[C@@H](O)NC(=O)[C@@H]5[C@@H](O)[C@@H](C)CN5C(=O)[C@H]([C@H](O)CC(N)=O)NC(=O)[C@H]([C@H](O)[C@@H](O)c5ccc(O)c(OS(=O)(=O)O)c5)NC(=O)[C@@H]5C[C@@H](O)CN5C(=O)[C@H]([C@@H](C)O)NC4=O)cc3)no2)cc1 | 16010 |  | 0.0078 µg/mL
CC(C)C(=O)C(O)(Cn1cncn1)c1ccc(Cl)cc1 | KE-2 |  | >100 µg/mL
CCOC1Oc2ccc(Cl)cc2C(=O)/C1=C\Nc1ccc(C(=O)O)c(O)c1 | PN-10 |  | 50 µg/mL
C=C1C(=O)O[C@@H]2/C=C(\C)CC/C=C(\C)CC[C@@H]12 | MTCC 227 | agar diffusion | >250 µg/mL
CO/C=C1\[C@@H](Cn2cncn2)[C@H](COc2ccc(OC(F)(F)F)cc2)CC[C@@]1(C)CCOC | CY3003 |  | 0.05 µg/mL
Cc1ncc([N+](=O)[O-])n1CCn1c(-c2ccc([N+](=O)[O-])cc2)csc1=Nc1ccccc1 |  |  | 250 µg/mL
C[C@@H](SCCCCCCCC(N)=O)[C@](O)(Cn1cncn1)c1ccc(F)cc1F | KB-8 |  | 0.2 µg/mL
Oc1ccc(CCN=C=S)cc1 | 5108 multidrug-resistant | visual reading | 4 µg/mL
O[C@@H](c1ccc(Cl)cc1)[C@](O)(Cn1cncn1)c1ccc(Cl)cc1 | KE-2 |  | 50 µg/mL
Clc1ccc(COC(Cn2ccnc2)c2ccc(Cl)cc2Cl)c(Cl)c1 | IFO 1594 |  | 0.063 µg/mL
S=C=NCCCCCCCN=C=S | 90030 | visual reading | <1 µg/mL
CCCC[C@@](O)(c1ccc(F)cc1)[C@](O)(Cn1cncn1)c1ccccc1Cl | KE-2 |  | >100 µg/mL
Cc1c(O)cccc1C(=O)N[C@@H](CSc1ccccc1)[C@H](O)CN1C[C@H]2CCCC[C@H]2C[C@H]1C(=O)NC(C)(C)C | I119C |  | >64 µg/mL
CC[C@@](O)(c1ccc(F)cc1)[C@](O)(Cn1cncn1)c1ccc(Cl)cc1 | KE-2 |  | >100 µg/mL
CC[C@H]1O[C@]2(CC[C@@H]1C)CC1C[C@@H](C/C=C(\C)C[C@@H](C)/C=C/C=C3\CO[C@@H]4C(O)C(C)=C[C@@](C)(C(=O)O1)[C@]34O)O2 | SC5314 | broth dilution / agar diffusion | 6.4 µg/mL
CNC1C(C)OC(O[C@H]2c3cc(C)c(C(=O)N[C@H](C)C(=O)N[C@@H](CCCCN)C(=O)O)c(O)c3-c3c(cc4c(c3O)C(=O)c3cc(OC)cc(O)c3C4=O)[C@@H]2O)C(O)C1OC1OCC(O)C(O)C1O | A9540 |  | >100 µg/mL
O=C(Cc1csc2nc(-c3ccc(Br)cc3)cn12)NNC(=S)Nc1ccc(Br)cc1 | ATCC 10231 |  | >32 µg/mL
CC(C)[C@@](C)(O)[C@](O)(Cn1cncn1)c1ccc(Cl)cc1Cl | KE-2 |  | >100 µg/mL
CNC1C(C)OC(O[C@H]2c3cc(C)c(C(=O)N[C@H](C)C(=O)N[C@@H](CC(=O)O)C(=O)O)c(O)c3-c3c(cc4c(c3O)C(=O)c3cc(OC)cc(O)c3C4=O)[C@@H]2O)C(O)C1OC1OCC(O)C(O)C1O | A9540 |  | >100 µg/mL
O=C(N/N=C/c1coc2ccccc2c1=O)c1ccccc1O | PN-10 |  | 250–400 µg/mL
COCCOCCOCCOCCOCCOCCNC(=O)[C@H]1[C@@H]2C[C@@H](O[C@@H]3O[C@H](C)[C@@H](O)[C@H](N)[C@@H]3O)/C=C/C=C/C=C/C=C/C=C/C=C/C=C/[C@H](C)[C@@H](O)[C@H](C)[C@H](C)OC(=O)C[C@H](O)C[C@H](O)[C@@H](O)CC[C@H](O)C[C@H](O)C[C@](O)(C[C@@H]1O)O2 | Isolate 92-824 |  | 3.03 µg/mL
Cc1ncc([N+](=O)[O-])n1CCN1C(=O)S/C(=C/c2ccco2)C1=O |  |  | 125 µg/mL
C#CC#CC(=O)c1ccccc1C(=O)O | UMRU204 |  | 40 µg/mL
CCNC1Oc2cc(C)c(C)cc2C(=O)/C1=C/Nc1ccc2[nH]c(=S)sc2c1 | PN-10 |  | 250 µg/mL
Cc1cc(NC(=O)CCN2C(=O)S/C(=C\c3cccc(Br)c3)C2=O)ccc1Cl |  |  | >100 µg/mL
CNC(=S)NNC(=O)Cc1csc2nc(-c3ccc(Br)cc3)cn12 | ATCC 10231 |  | 32 µg/mL
C[C@H]1[C@H](O)[C@@H](C)/C=C/C=C/C=C/C=C/C=C/C=C/C=C/[C@H](O[C@@H]2O[C@H](C)[C@@H](O)[C@H](N)[C@@H]2O)C[C@@H]2O[C@](O)(C[C@@H](O)C[C@@H](O)CC[C@H](O)[C@@H](O)C[C@@H](O)CC(=O)O[C@H]1C)C[C@H](O)[C@H]2C(=O)O |  | broth dilution / resazurin | 0.98 µg/mL
Cc1cc(C2CCCCC2)n(O)c(=O)c1 |  |  | 1–4 µg/mL
N#CCC(=O)N/N=C/c1coc2ccc([N+](=O)[O-])cc2c1=O | PN-10 |  | 400 µg/mL
Cc1ncc([N+](=O)[O-])n1CCN1C(=O)/C(=C/c2ccc(Cl)c(Cl)c2)N=C1c1ccccc1 |  |  | 250 µg/mL
C[C@](O)(c1ccc(Cl)cc1)[C@](O)(Cn1cncn1)c1ccc(Cl)cc1 | KE-2 |  | 100 µg/mL
CNC1C(C)OC(O[C@H]2c3cc(C)c(C(=O)N[C@H](C)C(N)=O)c(O)c3-c3c(cc4c(c3O)C(=O)c3cc(OC)cc(O)c3C4=O)[C@@H]2O)C(O)C1OC1OCC(O)C(O)C1O | A9540 |  | 6.3 µg/mL
O=Cc1coc2ccc(Cl)cc2c1=O | PN-10 |  | 10–50 µg/mL
Cc1ncc([N+](=O)[O-])n1CCN1C(=O)S/C(=C\c2ccccc2)C1=O |  |  | 125 µg/mL
Cc1ccc(NC(=O)CCN2C(=O)S/C(=C\c3ccc(O)c(O)c3O)C2=O)cc1 |  |  | 50 µg/mL
C[C@@H](SCCCCCCCC#N)[C@](O)(Cn1cncn1)c1ccc(F)cc1F | KB-8 |  | ≤0.013 µg/mL
O=C(CCN1C(=O)S/C(=C\c2ccccc2Br)C1=O)Nc1cccc(O)c1 |  |  | 25 µg/mL
O=C(N/N=C/c1coc2ccc(O)cc2c1=O)c1cc(O)c(O)c(O)c1 | PN-10 |  | 250–400 µg/mL
CS[C@H](C)[C@](O)(Cn1cncn1)c1ccc(F)cc1F | KB-8 |  | 0.025 µg/mL
CC1=C[C@H]2C(=O)OC3C[C@@H](C/C=C(\C)C[C@@H](C)/C=C/C=C4\CO[C@H](/C1=N\O)[C@@]42O)O[C@@]1(CC[C@H](C)[C@@H](C)O1)C3 | SC5314 | broth dilution / agar diffusion | 25.6 µg/mL
CC(=O)c1ccc2c(c1O)C=CC(C)(CO)O2 |  |  | 50 µg/mL
CNC1C(C)OC(O[C@H]2c3cc(C)c(C(=O)N[C@H](C)C(=O)OC)c(O)c3-c3c(cc4c(c3O)C(=O)c3cc(OC)cc(O)c3C4=O)[C@@H]2O)C(O)C1OC1OCC(O)C(O)C1O | A9540 |  | >100 µg/mL
O=C(Cc1csc2nc(-c3ccc(Br)cc3)cn12)N/N=C1\SCC(=O)N1c1ccc(Cl)cc1 | ATCC 10231 |  | >32 µg/mL
COc1ccc(C2NC(=S)Nc3[nH]c(=O)sc32)cc1OC | ATCC 10231 |  | 312.5 µg/mL
O=C(CCN1C(=O)S/C(=C\c2ccccc2F)C1=O)Nc1ccccc1 |  |  | 25 µg/mL
C[C@@](O)(c1ccccc1)[C@](O)(Cn1cncn1)c1ccc(Cl)cc1Cl | KE-2 |  | 50 µg/mL
Cc1ncc([N+](=O)[O-])n1CCN1C(=O)/C(=C/c2ccc(CO)cc2)N=C1c1ccccc1 |  |  | 250 µg/mL
c1ccc(-c2ccc(C(c3ccccc3)n3ccnc3)cc2)cc1 |  |  | 1 µg/mL
O=C(N/N=C/c1coc2ccccc2c1=O)c1ccncc1 | PN-10 |  | 250–400 µg/mL
Cc1ncc([N+](=O)[O-])n1CCn1c(-c2ccccc2)csc1=Nc1ccc(Cl)cc1 |  |  | 500 µg/mL

Repeating the first 5 entries:

structure | strain | method | result
CCCCCOc1ccc(-c2cc(-c3ccc(C(=O)N[C@H]4C[C@@H](O)[C@@H](O)NC(=O)[C@@H]5[C@@H](O)[C@@H](C)CN5C(=O)[C@H]([C@H](O)CC(N)=O)NC(=O)[C@H]([C@H](O)[C@@H](O)c5ccc(O)c(OS(=O)(=O)O)c5)NC(=O)[C@@H]5C[C@@H](O)CN5C(=O)[C@H]([C@@H](C)O)NC4=O)cc3)no2)cc1 | 16010 |  | 0.0078 µg/mL
CC(C)C(=O)C(O)(Cn1cncn1)c1ccc(Cl)cc1 | KE-2 |  | >100 µg/mL
CCOC1Oc2ccc(Cl)cc2C(=O)/C1=C\Nc1ccc(C(=O)O)c(O)c1 | PN-10 |  | 50 µg/mL
C=C1C(=O)O[C@@H]2/C=C(\C)CC/C=C(\C)CC[C@@H]12 | MTCC 227 | agar diffusion | >250 µg/mL
CO/C=C1\[C@@H](Cn2cncn2)[C@H](COc2ccc(OC(F)(F)F)cc2)CC[C@@]1(C)CCOC | CY3003 |  | 0.05 µg/mL

Two numbers with a dash give a range or band. An empty or dashed field is not shown.